Among the data in patent publication US20230374114A1, “Coronavirus antibodies and methods of use thereof” (Dana-Farber, published 2023) are Response values, retold here.

The target of assay [1] is WT Spike (SARS-CoV-2, UniProt P0DTC2 16-1213). As to the kind of experiment: biosensor, scFv-Fc loaded at 1 ug/ml, spike in solution at 48.3 nM.
Assay [2] has as its target WT Spike (SARS-CoV2, UniProt P0DTC2 16-1213). As to the kind of experiment: biosensor kinetics; scFv-Fc loaded at 1 ug/ml, spike as analyte at 48.3 nM.

B1: RBD-R3-E1-B3 Ab (Ab_32) (scFv, V domains shown)
VH: QVQLVQSGAEVKKPGESLKISCKGSGYSFTSYWIGWVRQMPGKGLEWMGIIYPGDSDTRYSPSFQGQVTISADKSISTAYLQWSSLKASDTAMYYCARGWQWHDYWGQGTLVTVSS
VL: QTVVTQEPAVSVALGQTVRITCQGDSLRSYYASWYQQKPGQAPVLVVYDKDKRPSGIPDRFSGSTSGNTASLTITGAQAEDEADYYCNSRDRSDNHVVFGGGTKLTVL
notes: also called Ab 32 scFv-Fc
In the assay with WT Spike [1], B1 had a Response of 0.131.

B2: Ab_17 (scFv, V domains shown)
VH: QVQLVQSGGGVVQPGRSLRLSCAASGFTFDDYAMHWVRQVPGKGLEWVSGIDWNSGVIGYADSVKGRFTISRDNVKNSLYLQMNSLRTEDSALYYCAKDIGPGGSGSYYAFDIWGQGTTVTVSS
VL: QSALTQPASVSGSPGQSITISCTGTSSDVGGSKYVSWYQQHPGKAPKVMIYDVTKRPSGVPDRFSGSKSGNTASLTISGLQAEDEADYYCAAWDDSLNGVVFGGGTKLTVL
notes: also called Ab 17 scFv-Fc
The molecule B2 registered a Response in the assay with WT Spike [1] of 0.248.

B3: S1-R3-T1-C4 (Ab_8) (scFv, V domains shown)
VH: QVQLVQSGAEVKKPGSSVKVSCKASGGTFSSYAISWLRQAPGQGLEWMGWINPNSGGTNYAQKFQGRVTMTRDTSISTAYMELSRLRSDDTAVYYCARGSGGYYLGWGQGTLVTVSS
VL: QPGLTQPPSVSKGLRQTATLTCTGNSNNVGNQGAAWLQQHQGHPPKLLSYMNNNRPPGISERFSASRSGNTASLTITGLQPEDEADYYCSAWDSSLSRWVFGGGTKLSVL
notes: also called Ab 8 scFv-Fc
B3 came in with a Response with WT Spike [1] of 0.118.

B4: RBD-R3-E1-A5 Ab (Ab_30) (scFv, V domains shown)
VH: QVQLVQSGGGVVQPGKSLRLSCTASGFTFSDFPIHWVRQAPGKGLEWVGVISYDGNIKYYGDSVKGRFTISRDNAKNSLYLQMNSLRVEDTAVYYCARGGSSFDIWGQGTTVTVSS
VL: SYELTQPPSVSEAPRQRVTISCSGSTSNIGNNAVSWYQHLPGKAPKLLIYYNERLPSGVSDRFSGSKSGTSASLAISGLRSEDEADYYCAAWDDSLSGHVVFGGGTKLTVL
notes: also called Ab 30 scFv-Fc
With B4, the Response in the assay with WT Spike [1] turned out to be 0.107.

B5: Ab 20 (scFv, V domains shown)
VH: QVQLVQSGGGSVKPGGSLRLSCAASGYRLSDYYMHWVRQAPGKGLEWVANIKQDGSEKYYVDSVKGRFTISRDNAKNSLYLQMNSLRAEDTAVYYCARVRGWSRGYFDYWGQGTLVTVSS
VL: NFMLTQPHSVSESPGKTVTISCTGSSGSIASNYVQWYQQRPGSAPTTVIYEDNQRPSGVPDRFSGSIDSSSNSASLLISGLKTEDEADYYCQSYDSSNHWVFGGGTKLTVL
notes: also called Ab 20 scFv-Fc
In the assay with WT Spike [1], B5 came in with a Response of 0.0985.

B6: Ab 25 (scFv, V domains shown)
VH: QVQLVQSGGGLVQPGGSLRLSCAASGFTFSSYWMSWVRQAPGKGLEWVANIKQDGSEKYYVDSVKGRFTISRDNAKNSLYLQMNSLRAEDTAVYYCARGFYYYGAFDIWGQGTTVTVSS
VL: NFMLTQPHSVSESPGKTVTISCTGSSGSIASNYVQWYQQRPGSAPTTVIYEDNQRPSGVPDRFSGSIGSSSNSASLTISGLKTEDEADYYCQSYDSSNHWVFGGGTKLTVL
notes: also called Ab 25 scFv-Fc
Turning to B6, the Response with WT Spike [1] came out at 0.0219.

B7: Ab 28 (scFv, V domains shown)
VH: QVTLKESGPGLVNPSETLSLTCTVSGASISNSFWSWIRQSPGKGLEWIGYTSYSGNSIYNPSLKSRLTMSIDTSKNQLSLNLRSLTAADTAVYYCARREWIKGHFDYWGQGTLVTVSS
VL: NFMLTQPHSVSESPGKTVTISCTGSGGSIASNYVQWYQQRPGSAPTTVIYEDNQRPSGVPDRFSGSIDSSSNSASLTISGLKTEDEADYYCQSYDSSNPVVFGGGTKLTVL
notes: also called Ab 28 scFv-Fc
B7 yielded a Response in the assay with WT Spike [1] of 0.132.

B8: S1-RBD-R3-T1-B12 Ab (Ab_31) (scFv, V domains shown)
VH: QVQLVQSGAEVKKPGSSVKVSCKASGGTFSSYTISWVRQAPGQGLEWMGGIIPILGTPNYAQKFQDRVAITADKSTSTAYMELSSLRSEDTAVYYCAVGSGWYSGFDYWGQGTLVTVSS
VL: NFMLTQPHSVSESPGKTVTISCTGSSGSIASNYVQWYQQRPGSAPTTVIYEDSQRPSGVPDRFSGSIDSSSNSASLTISGLKTEDEADYYCQSFHNSNPVIFGGGTKLTVL
notes: also called Ab 31 scFv-Fc
B8: in the assay with WT Spike [1], the Response came out at 0.101.

B9: Ab_13 (scFv, V domains shown)
VH: QVTLKESGPKLVKPTQTLTLTCTFSGFSLSTSGVGVGWIRQPPGKALEWLALIYWDDDKRYSPSLKSRLTIAKDTSKYQVVLTMTNMDPVDTATYYCARISGSGYFYPFDIWGQGTMVTVSA
VL: NFMLTQPHSVSESPGKTVTISCTRSSGSIASNYVQWYQQRPGSAPTTVIYEDNQRPSGVPDRFSGSIDSSSNSASLTISGLKTEDEADYYCQSYDSSNLWVFGGGTKLTVL
The molecule B9 had a Response with WT Spike [1] of 0.0732.

B10: Ab 27 (scFv, V domains shown)
VH: QVQLVQSGTEVKKPGASVKVSCKASGYSFTGSHLHWVRQAPGQGLEWMGWINPDSGVINYAQKFQGRVTLTRDTSISTAYMELSGLRSDDTAVYYCARDKAIGYVWALDYWGQGTLVTVSS
VL: QSALTQPPSVSGSPGQSVTISCTGTSSDVGTYNRVSWYQQPPGKAPKLMIYEVSNRPSGVSNRFSGSKSGNTASLTISGLQAEDEADYYCSSYTRTFTYVFGTGTKVTVL
notes: also called Ab 27 scFv-Fc
For B10, the Response with WT Spike [1] amounted to 0.202.

B11: S1-R3-T1-H7 (Ab12) (scFv, V domains shown)
VH: EVQLVESGPGVVSPSATLFLTCSVSGGSIRTHSWNWIRQPPGKPLEWIGFIHHSGATNKNPSLKSRVTISSDTSKNEFSLTLTSVTAADTAVYYCARGPGILSYWSRGTLVTVSS
VL: LPVLTQPPSASGTPGQRVTISCSGSSSNIGSNTVNWYQQLPGTAPKLLIYSNNQRPSGVPDRFSGSKSGTSASLAISGLQSEDEADYYCAAWDDSLNVHYVFGSGTKVTVL
notes: also called Ab 12 scFv-Fc
In turn, B11 returned a Response with WT Spike [1] of 0.186.

B12: Ab_14 (scFv, V domains shown)
VH: QVQLQQSGPGLVKPSQTLSLTCAISGDSVSSNSAAWNWIRQSPARGLEWLGRTYYRSRWYNDYAISMKSRITINPDTSKNQFSLQLESVTPEDTAVYYCAREIRGFDYWGQGTLVTVSS
VL: QSVLTQPPSASGSPGQSVTISCTGTSSDVGAYNFVSWYQHHPGKAPKLIIYDFNKRPSGVPDRFSGSKSGNTASLTVSGLQADDEADYYCSSYAGSNNFDVVFGGGTKLTVL
notes: also called Ab 14 scFv-Fc
B12: in the assay with WT Spike [1], the Response was 0.313.

B13: Ab 23 (scFv, V domains shown)
VH: EVQLVQSGAEVKKPGSSVKVSCRSSGGTFSTYGITWVRQAPGQGLEWMGRIIPSLGIPNYAQKFQGRVTITADTSVSTAWMELSSLESDDTAIYYCARENIDLATNDFWGQGTLVTVSS
VL: QSALTQPPSASGSPGQSVTISCTGTSRDIGAYGYVSWYQQVPGKAPKLIIYEVRNRPSGVSSRFSGSKSGNTASLTISGLQAEDEADYYCSSYTSSSTLDVVFGGGTKLTVL
notes: also called Ab 23 scFv-Fc
Consider B13, for which, in the assay with WT Spike [1], the Response was found to be 0.0845.

B14: S1-RBD-R3-E1-E8 Ab (Ab 37) (scFv, V domains shown)
VH: QVQLVQSGAEVKKPGASVKVSCKASGYTFTSYGISWVRQAPGQGLEWMGWISTYNGNTNYAQKLQGRVTMTTDTSTSTAYMEVRSLRSDDTAVYYCARDVFGHFDYWGQGTLVTVSS
VL: NFMLTQPHSVSESPGKTVLISCTRSSGNIATNYVQWYQQRPGSAPTTVIYEDNQRPSGVPDRFSGSIDSSSNSASLTISGLKTEDEADYYCKSYDDGNHVFGGGTKLTVL
notes: also called Ab 37 scFv-Fc
Take B14: the Response in the assay with WT Spike [2] was 0.0801.

B15: S1-RBD-R3-T1-C7 Ab (Ab 29) (scFv, V domains shown)
VH: QVQLQQSGPGLVKPSQTLSLTCAISGDSVSSYSDAWNWIRQSPSRGLEWLGRTYYRSKWYNDYAVSVKSRITINPDTSKNQFSLQLSSVTPEDTAVYYCAREIVATTPFRNYYYGMDVWGQGTTVTVSS
VL: NFMLTQPHSVSESPGNTVTISCTRTSGSIASNYVQWYQQRPGSSPTTVIFQDKLRPSGVPDRFSGSIDSSSNSASLTISGLKTEDEADYYCQSYDSSSLWVFGGGTKLTVL
notes: also called Ab 29 scFv-Fc
On to B15, for which, in the assay with WT Spike [1], the Response came out at 0.126.

B16: S1-RBD-R3-T1-D7 Ab (Ab_34) (scFv, V domains shown)
VH: QVQLVQSGVEVKKPGESLKISCKGSGYSFTSYWIGWVRQMPGKGLEWMGIIYPGDSDTRYSPSFQGQVTISADKSISTAYLQWSSLKASDTAMYYCARTTYSYGSFDYWGQGTLVTVSS
VL: QPGLTQPPSASGTPGQGVTISCSGSSSNIGGNSVHWYQQLPGTAPKLLIYRNNQRPSGVPDRFSGSKSGTSASLAISGLRSEDEADYYCAAWDDSLNGWVFGGGTKLTVL
notes: also called Ab 34 scFv-Fc
In the assay with WT Spike [1], B16 returned a Response of 0.1.

B17: Ab_19 (scFv, V domains shown)
VH: EVQLVESGAEVKKPGESLKISCKGSGYSFTSYWIGWVRQMPGKGLEWMGIIYPGDSDTRYSPSFQGQVTISADKSISTAYLQWSSLKASDTAMYYCARRGDLDAFDIWGQGTMVTVSS
VL: QPGLTQPPAASGTPGQRVTVSCSGASANIGSNAVSWFKQFPETAPRLLISGNTHRPSGVPDRVSGSKSGTSASLTISGLQSDDEADYYCAAWDDSLNGYVFGSGTKVTVL
notes: also called Ab 19 scFv-Fc
For the molecule B17, in the assay with WT Spike [1], the Response was found to be 0.121.

B18: Ab 21 (scFv, V domains shown)
VH: QVQLVQSGGGLVQPGGSLRLSCATSGFTFDDYAMHWVRQAPGKGLEWVSGISWNSGSIGYVDSVKGRFTISRDNRNNKVYLQMNNLRAEDTAVYYCARDWWGSIDHWGLGTLVTVSS
VL: QSALTQPRSVSGSPGQSVTISCTGTSSDVGGYDYVSWYQQHPGKAPKLIIYDVSKRPSGVPDRFSGSKSGNTASLTVSGLQAEDEADYYCSSYTSSSPVVFGGGTKLTVL
notes: also called Ab 21 scFv-Fc
Take B18: the Response with WT Spike [1] came to 0.147.

B19: Ab_18 (scFv, V domains shown)
VH: EVQLVQSGGGVVQPGRSLRVSCAASGFSFSRYGMHWVRQAPGKGLEWVAFIRHDGSKKYYADSVEGRFTISRDNSRNTVSLEMNSLRGEDTAVYYCAKDGRLEAALDDWGQGTLVTVSS
VL: NFMLTQPHSMSGSAGKTVTVSCIRSSGSIANNFVQWYQQRPGSAPTTVIYEDNQRPSGVPDRFSGSIDSSSNSASLTISGLKTEDEADYYCQSYDSSNLVFGGGTRLTVL
notes: also called Ab 18 scFv-Fc
Molecule B19 gave a Response in the assay with WT Spike [1] of 0.216.

B20: RBD-R3-T1-H3 (Ab_2) (scFv, V domains shown)
VH: EVQLVQSGAEVKKPGSSVKVSCKTSGYTFTTSGISWVRQAPGQGLEWMGWISAYNGNTNYAQKLQGRVTMTTDTSTSTAYMELRSLRSDDTAVYYCARDFHLYYGMDVWGKGTLVTVSS
VL: QSALTQPPSASGSPGQSVTISCTGTSSDVGAYNYVSWYQQHPGKAPKLLIYDVTKRPPGVPDRFSGSKSGNTASLTVSGLQAEDEADYYCAVWDDGLNGRVVFGGGTKLTVL
notes: also called Ab 2 scFv-Fc
In the assay with WT Spike [1], B20 returned a Response of 0.0652.

B21: Ab_16 (scFv, V domains shown)
VH: QVQLVQSGGGVVQPGRSLRLSCAASGFTFSNYGMHWVRQAPGKGLEWVALIWERGSKKDYADSVKGRFTVSRDNSKNTLYLQMNSLRPEDTAVYFCAREGISMTGAEYFQHWGQGTLVTVSS
VL: QSVLTQPPSVSGSPGQRVTMSCTGSSSNIGAGYDVHWYQQVPGAAPRLLIYGTNNRPSGVPDRFSGSKSGTSASLTITGLQAEDEADYYCQSYDNSLTDPYVFGTGTKVTVL
notes: also called Ab 16 scFv-Fc
With B21, the Response with WT Spike [1] is 0.346.
